The test system of the data set is D54MG glioma cells. Description: 125[I]-chlorotoxin binding, Scatchard analysis. Also noted: species or system human.

The record followed here is patent US6870029B2, “Method of diagnosing and treating gliomas” (priority 1995, dated 2005).

As for chlorotoxin, the “high affinity Ctx binding sites per cell” value was “approximately 1,300 sites per cell” and the “low affinity binding sites per cell” value was ~13,300 sites per cell.
